Source: PubChem BioAssay AID504761 (Drosophila RNAi Screening Center, 2011)
Test: 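Fly genes whose silencing reduces dengue virus type 2 infection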 (primary screen). System: D.Mel-2 cells from Drosophila. Reagent: long dsRNA against Drosophila genes. Treatment: infection with dengue virus type 2; dose and infection time not stated. Measurement: 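Cells stained for dengue envelope protein and imaged; percent of infected cells per well on duplicate plates, ranked by infection, with stained nuclei counted for cell number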. Scale: infection score: higher = more virus-infected cells; cell count: higher = more cells in the well. Active means: 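Very low infection ranking in both replicate wells (chance probability at most 0.065), then a retest showing infection dropped 1.5-fold or more at p below 0.05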. Meaning of the calls: active = confirmed: knock-down lowers infection; inactive = not picked or not confirmed.
The deposit covers about 22,000 reagents; shown is a random part of those with a known target gene and a result. Of all reagents, 116 (0.52%) got an active call. 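Calls depend on retest data that are not deposited; infection was ranked per plate without normalising between plates; the unit of the infection score is not given.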 The raw values are shown without normalisation. Not given: the amount of reagent, the time to read-out.

target | DRSC id | infection score, replicate 1 | infection score, replicate 2 | cell count, replicate 1 | cell count, replicate 2 | Outcome
St4 | DRSC07008 | 7.85 | 2.66 | 6357 | 6810 | inactive
CG13239 | DRSC11694 | 15.6 | 13 | 6655 | 6310 | inactive
yip7 | DRSC11410 | 2.34 | 4.83 | 6397 | 5793 | inactive
yip7 | DRSC25234 | 0.98 | 3.98 | 6012 | 6082 | inactive
tipE | DRSC08738 | 14.9 | 3.08 | 6126 | 6101 | inactive
tipE | DRSC29985 | 8.31 | 6.61 | 6136 | 5972 | inactive
GluRIIC | DRSC00642 | 1.41 | 3.47 | 6019 | 6722 | inactive
yellow-b | DRSC03639 | 39.5 | 2.71 | 6077 | 6375 | inactive
CG6051 | DRSC15956 | 2.59 | 11.5 | 6990 | 6801 | inactive
CG6051 | DRSC25123 | 3.32 | 3.35 | 6529 | 6300 | inactive
Mul1 | DRSC08174 | 1.08 | 2.05 | 6368 | 6063 | inactive
Mul1 | DRSC25694 | 3.66 | 6.17 | 5706 | 5912 | inactive
CG32816 | DRSC17337 | 1.6 | 2.16 | 6799 | 6814 | inactive
Cyp6g1 | DRSC07386 | 4.96 | 8.01 | 6235 | 6681 | inactive
CG14424 | DRSC18472 | 2.06 | – | 2086 | 375 | inactive
CG14424 | DRSC29124 | – | 0.37 | 293 | 273 | inactive
Zip48C | DRSC06314 | 13.2 | 25.5 | 4381 | 3075 | inactive
CG31988 | DRSC22491 | 2.29 | 13.7 | 5405 | 5850 | inactive
S-Lap7 | DRSC06374 | 29.5 | 15.4 | 5560 | 6483 | inactive
S-Lap7 | DRSC27414 | 3.87 | 18.1 | 6823 | 5902 | inactive
CG11147 | DRSC02129 | 11 | 2.97 | 2886 | 6466 | inactive
CG6959 | DRSC16151 | 5.61 | 15.6 | 6771 | 1838 | inactive
CG1688 | DRSC23207 | 3.9 | 1.5 | 6046 | 6916 | inactive
Sur-8 | DRSC15794 | 16.6 | 18.2 | 3083 | 5568 | inactive
CG1077 | DRSC12146 | 1.22 | 1.19 | 5973 | 6710 | inactive
CG1077 | DRSC26068 | 6.33 | 4.03 | 6115 | 6358 | inactive
gnu | DRSC10497 | 9.56 | 10.4 | 6341 | 6816 | inactive
crm | DRSC18754 | 0.73 | 3.43 | 5614 | 5281 | inactive
crm | DRSC26508 | 1.97 | 1.97 | 6338 | 5932 | inactive
Snx3 | DRSC16027 | 1.65 | 5.57 | 6315 | 6468 | inactive
Snx3 | DRSC28751 | 14.8 | 13.4 | 4898 | 3722 | inactive
CG14416 | DRSC18639 | 2.67 | 10.6 | 712 | 5479 | inactive
CG14416 | DRSC29804 | 10.4 | 7.81 | 6014 | 6258 | inactive
CG11050 | DRSC02125 | 2.22 | 7.31 | 6261 | 3325 | inactive
CG11050 | DRSC23562 | 1.81 | 9.27 | 6088 | 6388 | inactive
MFS12 | DRSC07268 | 9.23 | 9.95 | 4541 | 5408 | inactive
plum | DRSC16054 | 5.29 | 2.04 | 6652 | 6866 | inactive
SMC5 | DRSC11849 | 6.05 | 9.36 | 6492 | 6264 | inactive
CG2680 | DRSC18466 | 5.66 | 3.74 | 5901 | 6230 | inactive
Tina-1 | DRSC04317 | 14.1 | 12.7 | 6502 | 5484 | inactive
Gnmt | DRSC15987 | 3.26 | 0.94 | 6234 | 6093 | inactive
wrapper | DRSC04723 | 24.3 | 16.8 | 6044 | 5873 | inactive
Frmd5 | DRSC02802 | 4.49 | 8.19 | 6438 | 6420 | inactive
CG17026 | DRSC10237 | 3.53 | 3.22 | 5729 | 6141 | inactive
CG17026 | DRSC24059 | 5.59 | 3.76 | 6210 | 6117 | inactive
Tom20 | DRSC10899 | 7.61 | 6.59 | 6241 | 6240 | inactive
CG13723 | DRSC10052 | 1.3 | 1.62 | 6389 | 6340 | inactive
Noc3 | DRSC12535 | 5.97 | 12.6 | 5613 | 5173 | inactive
Zfrp8 | DRSC04352 | 10.9 | 15.3 | 6378 | 4030 | inactive
Su(z)12 | DRSC11293 | 1.7 | 3.33 | 6290 | 6157 | inactive
Su(z)12 | DRSC26081 | 4.56 | 3.57 | 6562 | 6603 | inactive
CG11970 | DRSC14157 | 13.8 | 11.2 | 6455 | 6230 | inactive
CG17029 | DRSC10240 | 1.78 | 1.97 | 6514 | 6384 | inactive
CG17029 | DRSC29418 | 22.6 | 19.2 | 3528 | 2618 | inactive
CG31082 (retired record) | DRSC13775 | 1.72 | 0.23 | 6119 | 5731 | inactive
CG31082 (retired record) | DRSC28134 | 14.8 | 12.6 | 2898 | 4902 | inactive
CG13793 | DRSC02297 | 5.34 | 3.78 | 6536 | 5950 | inactive
CG13793 | DRSC28252 | 13.6 | 10.7 | 6526 | 3832 | inactive
IleRS | DRSC11667 | 2.45 | 6.73 | 6370 | 6215 | inactive
CR33315 | DRSC22947 | 1.68 | 2.59 | 6805 | 7361 | inactive
CR33315 | DRSC27669 | 18 | 3.93 | 5280 | 6316 | inactive
CG12126 | DRSC06103 | 12.8 | 18.3 | 6275 | 4980 | inactive
CG5618 | DRSC11780 | – | 11.9 | 429 | 5213 | inactive
CG5618 | DRSC28806 | 18.7 | 7.28 | 5266 | 5108 | inactive
dob | DRSC19948 | 6.16 | 1.54 | 6505 | 6287 | inactive
Cdk5alpha | DRSC03290 | 0.63 | 3.86 | 6981 | 7023 | inactive
Cdk5alpha | DRSC23301 | 1.69 | 4.61 | 6373 | 6811 | inactive
CngB | DRSC04297 | 5.8 | 13.8 | 6555 | 3687 | inactive
Cdc50 | DRSC20224 | 40.6 | 14.2 | 6025 | 6654 | inactive
Nup153 | DRSC19904 | 43.5 | 42.8 | 1486 | 1366 | inactive
betaNACtes1 | DRSC19534 | 11.8 | 6.31 | 4041 | 5453 | inactive
betaNACtes1 | DRSC26176 | 10.3 | 2.38 | 5065 | 6388 | inactive
eIF4H1 | DRSC20276 | 30.7 | 6.39 | 5312 | 6074 | inactive
CG3347 | DRSC00597 | 15.2 | 4.74 | 6700 | 6459 | inactive
